Test results reported in publication PMC8584447, “Adhesive Antimicrobial Peptides Containing 3,4-Dihydroxy-L-Phenylalanine Residues for Direct One-Step Surface Coating” (International Journal of Molecular Sciences, 2021).
Ends that are not written are not given here.

Experiment: Quantification of immobilized peptides on PS surface (bicinchoninic acid assay)
Format: physicochemical
Conditions: micro BCA assay; for mass of adsorbed peptide (coverage): 24-well PS plate, 200 μM peptide in 10 mM Tris-HCl pH 8.5, coated 10 min at 37 °C, triplicate mean

Substance	amount of peptide adhered to the PD-coated surface (polydopamine (PD)-coated 24-well PS plate, 200 μM NKC, 24 h at 37 °C) [μg/cm^2]	mass of adsorbed peptide (coverage) [μg/cm^2]
APKAMKLLKKLLKLQKKGI-NH2 (C-terminus assumed) [NKC, reference compound]	13.6	–
APKAMKLLKKLLKLQKKGIGGGGSGGGGSY [NKC-DOPA1, NKC with glycine–serine linker and 1 DOPA moiety at the C-terminus]	–	2.7
APKAMKLLKKLLKLQKKGIGGGGSGGGGSYYY [NKC-DOPA3, NKC with glycine–serine linker and 3 DOPA moieties at the C-terminus]	–	4.9
APKAMKLLKKLLKLQKKGIGGGGSGGGGSYYYYY [NKC-DOPA5, NKC with glycine–serine linker and 5 DOPA moieties at the C-terminus]	–	7.2
APKAMKLLKKLLKLQKKGIGGGGSGGGGSYYYYYYY [NKC-DOPA7, NKC with glycine–serine linker and 7 DOPA moieties at the C-terminus]	–	12.8
